PMC3511042 (Beilstein Journal of Organic Chemistry, 2012)
*1 amine or outer side, *2 acyl side, *3 side chain or, on linkers, in order; H or OH if unused. Where a SMILES comes first, the peptide text is derived from it. Bridges are numbered along the chain shown (N, C = ends). [ ]: non-standard residue; d: D form. The star is where a group is joined. ξ: configuration not given here. X3 = CN(C)c1ccc2c(-c3cc(NC(=S)*)ccc3C(=O)[O-])c3ccc(=[N+](C)C)cc-3oc2c1; ξTrp(2-yl) = O=C(C(Cc1c([*:3])[nH]c2ccccc12)N[*:1])[*:2]; X2 = CC1(CC(N[*:1])C(=O)[*:2])SCC(CN[*:3])S1; Hyp = O=C(O)[CH]1C[CH](O)CN1

Tested on: NIH 3T3 mouse fibroblasts
Test: Binding and uptake by fluorescence microscopy
Type: cell-based
Conditions: 10^−5 M, live cells

CC1NC(=O)C(CC2(C)SCC(CNC(=S)Nc3ccc(C(=O)[O-])c(-c4c5ccc(=[N+](C)C)cc-5oc5cc(N(C)C)ccc45)c3)S2)NC(=O)C2Cc3c([nH]c4ccccc34)SCC(NC(=O)C(C(C)O)NC1=O)C(=O)N1CC(O)CC1C(=O)NC(C)C(=O)N2 (stereo not drawn) [compound 3, dithiolanoaminophalloidin TRITC labeled] (cyclo([ξTrp(2-yl)][X2](X3)ATC[Hyp]A); thioether 1-5; configuration not given here)
location of the fluorescent toxin after 1 h: bound on the plasma membrane
location of the fluorescent toxin after 6 h: most of the fluorescent material resides in endocytotic vesicles
location of the fluorescent toxin after 24 h: most of the rhodamine-labeled toxin was still in endosomes
